Pooled drug test results. Numbers come from NIAID ChemDB, via PubChem.

Common to all: whole-cell or culture tests; agent: Cryptococcus neoformans; measure: MIC

Blank or dashed fields: not listed here. Neighbouring rows are from separate reports. Two numbers with a dash give a range or band.

CC(C)C(=O)CCC[C@@H]1CO[C@@](Cn2cccc2)(c2ccc(F)cc2F)C1 ; strain or isolate: IFM.40092 ; value: >100 µg/mL
CC1=C2[C@@H](OC(=O)/C=C/c3ccccc3)[C@H](C(C)C)CC[C@]2(C)[C@@H](O)CC1=O ; strain or isolate: CECT1075 ; value: 8 µg/mL
Clc1ccc(COC(Cn2ccnc2)c2ccc(Cl)cc2Cl)c(Cl)c1 ; value: 0.3 µg/mL
CC(=O)c1ccc2c(c1O)C=CC(C)(CO)O2 ; value: 50 µg/mL
CCCCCCCCCCCCCCCCCC(=O)NC1CC(O)C(O)NC(=O)C2C(O)C(C)CN2C(=O)C(C(C)O)NC(=O)C(C(O)C(O)c2ccc(O)cc2)NC(=O)C2CC(O)CN2C(=O)C(C(C)O)NC1=O ; strain or isolate: MY1146 ; value: >128 µg/mL
CCCSc1ccc2nc(NC(=O)OC)[nH]c2c1 ; strain or isolate: 93-175 ; conditions: 48 h ; value: ≤0.6 µg/mL
COC(=O)[C@@H]1N=C1/C=C\CCCCCCCCCCCCC(C)(C)C ; strain or isolate: var. grubii ; value: 8–10 µg/mL
CC(C)CCCCCCCCC1CC(=O)NCC(=O)N[C@@H](CCCN)C(=O)N[C@@H](C(C)C)C(=O)N1 ; strain or isolate: TIMM0354 ; value: 0.63 µg/mL
C[C@@H]1C(=O)N(Cc2ccccc2)C(=O)[C@@H]1C ; strain or isolate: ATCC 32264 ; read by: broth dilution / turbidity ; value: 62.5 µg/mL
Clc1ccc(C(Cn2ccnc2)NCc2cccc3ccccc23)c(Cl)c1 ; value: >50 µg/mL
CC(C)(C)c1ccc(COC(Cn2ccnc2)c2ccccc2)cc1 ; value: 128 µg/mL
COc1ccc(CC2CC([C@H]3O[C@@H]4OC(C)(C)O[C@@H]4[C@H]3OCc3ccccc3)=NO2)cc1 ; value: 25 µg/mL
CC1CC(=O)N(c2ccc(Br)cc2)C1=O ; strain or isolate: ATCC 32264 ; read by: broth dilution / turbidity ; value: 125 µg/mL
CC(C)(C)c1ccc(COC(Cn2ccnc2)c2ccc(Cl)cc2Cl)cc1 ; value: >128 µg/mL
CCCCCCCCCCCCC/C=C\C1=N[C@H]1C(=O)OC ; strain or isolate: var. gatti ; value: 2 µg/mL
CCCCCCCCCCCC(=O)NC(CCCN)C(=O)NC(CCCN)C(=O)NC(CCCN)C(=O)NC(CCCN)C(N)=O ; strain or isolate: ATCC 2344 ; read by: broth dilution ; value: 12.5 µg/mL
CNC1C(C)OC(O[C@H]2c3cc(C)c(C(=O)N[C@H](C)C(=O)NCC(=O)O)c(O)c3-c3c(cc4c(c3O)C(=O)c3cc(OC)cc(O)c3C4=O)[C@@H]2O)C(O)C1OC1OCC(O)C(O)C1O ; strain or isolate: IAM 4514 ; value: >50 µg/mL
CCCCC/C=C/C=C/C(O)C/C=C/C=C/C(=O)OC1C(O)C(c2c(O)cc(O)cc2CO)OC(CO)C1OC1OC(C(O)COC(=O)/C=C/C=C\CCC(O)CC)C(O)C1O ; strain or isolate: IMC F-10 ; value: >100 µg/mL
CCC(C)CC(C)CCCCCCCCC(=O)NC1C[C@H](O)[C@@H](O)NC(=O)[C@@H]2[C@@H](O)[C@@H](C)CN2C(=O)[C@H]([C@H](O)CC(N)=O)NC(=O)[C@H](C(O)[C@H](O)c2ccc(O)cc2)NC(=O)[C@@H]2C[C@@H](O)CN2C(=O)[C@H]([C@@H](C)O)NC1=O ; strain or isolate: MY1146 ; value: >128 µg/mL
CC1CC(=O)N(CCCCc2ccccc2)C1=O ; strain or isolate: ATCC 32264 ; read by: broth dilution / turbidity ; value: 125 µg/mL
C[C@H]([C@](O)(Cn1cncn1)c1ccc(F)cc1F)S(C)(=O)=O ; strain or isolate: R716 (AZOLE-R) ; value: 5 µM
Clc1ccc(C(Cn2ccnc2)NC/C=C/c2ccccc2)c(Cl)c1 ; value: >50 µg/mL
O=C1C=CC[C@H](/C=C/c2ccccc2)O1 ; read by: broth dilution ; value: 18 µg/mL
Nc1ncc(/C=C/c2ccc([N+](=O)[O-])o2)nn1 ; value: 5 µg/mL
CCCCCCCCCCCCCC(O)CC(O)C(N)CC(=O)CC(C)C(N)C(=O)NC(C=O)CO ; value: 3.12 µg/mL
c1ccc(C(Cn2ccnc2)OCc2cccc3ccccc23)cc1 ; value: >128 µg/mL
CCCCCCCCCCCCCCCC1=N[C@H]1C(=O)OC ; strain or isolate: var. gatti ; value: 2 µg/mL
CNC1C(C)OC(O[C@H]2c3cc(C)c(C(=O)N[C@H](C)C(=O)N[C@@H](CCCCN)C(=O)O)c(O)c3-c3c(cc4c(c3O)C(=O)c3cc(OC)cc(O)c3C4=O)[C@@H]2O)C(O)C1OC1OCC(O)C(O)C1O ; strain or isolate: IAM 4514 ; value: >100 µg/mL
CCCCCCCCCC(=O)NC(CCCN)C(=O)NC(CCCN)C(=O)NC(CCCN)C(=O)NC(CCCN)C(N)=O ; strain or isolate: ATCC 2344 ; read by: broth dilution ; value: 100 µg/mL
C[C@@H](N1CCc2nc(-c3ccsc3)sc2C1)[C@](O)(C[n+]1cnc[nH]1)c1ccc(F)cc1F ; strain or isolate: 32609 ; value: 0.5 µg/mL
CCn1c2c(c3ccccc31)C(=O)c1nccc(C)c1C2=O ; value: >200 µg/mL
c1ccc(N2CCC(n3cc(CN4CCc5sccc5C4)nn3)CC2)cc1 ; strain or isolate: NCIM576 ; read by: agar ; value: 90 µg/mL
OC(Cn1cncn1)(Cn1cncn1)c1ccc(F)cc1F ; strain or isolate: 3 ; value: 3.13 µg/mL
CCCCCCCCCC(=O)NC(CCCN)C(=O)NC(CCCN)C(N)=O ; strain or isolate: ATCC 2344 ; read by: broth dilution ; value: >100 µg/mL
COc1ccc(/C=C2\CSc3ccc(Cl)cc3C2=O)cc1 ; strain or isolate: 25 ; value: 6 µg/mL
O=c1ccc2nccc3c4ccccc4n1c23 ; value: 12.8 µM
C[C@@H]1C(=O)N(CCCc2ccccc2)C(=O)[C@@H]1C ; strain or isolate: ATCC 32264 ; read by: broth dilution / turbidity ; value: 62.5 µg/mL
S=C=NCCCCCCCN=C=S ; strain or isolate: CNH99 ; read by: visual reading ; value: <1 µg/mL
CCCCCCCCCCCCCC#CC1=N[C@H]1C(=O)OC ; strain or isolate: var. gatti ; value: 4 µg/mL
COc1ccc(/C=C2\COc3ccc(OC)cc3C2=O)cc1 ; strain or isolate: Farwania ; value: 6 µg/mL
c1ccc(-c2ccc(CNC(Cn3ccnc3)c3ccccc3)cc2)cc1 ; value: 1.5 µg/mL
CCCCCCCCCCCC(=O)NC(CCCN)C(N)=O ; strain or isolate: ATCC 2344 ; read by: broth dilution ; value: >100 µg/mL
CC(C)C(=N)CCC=C1CO[C@@](Cn2ccnc2)(c2ccc(F)cc2F)C1 ; strain or isolate: B42419 ; value: 25 µg/mL
CN[C@@H]1[C@H](O[C@@H]2OC[C@@H](O)[C@H](O)[C@H]2O)[C@@H](O)[C@H](O[C@H]2c3cc(C)c(C(=O)NCC(=O)O)c(O)c3-c3c(cc4c(c3O)C(=O)c3cc(OC)cc(O)c3C4=O)[C@@H]2O)O[C@@H]1CO ; strain or isolate: IAM 4514 ; value: 0.8 µg/mL
CC(C)=CCC/C(C)=C/CN(C)C(=N)N(C)C/C=C(\C)CCC=C(C)C ; strain or isolate: ATCC 90012 ; value: 250 µg/mL
CN[C@@H]1[C@H](O[C@@H]2OC[C@@H](O)[C@H](O)[C@H]2O)[C@@H](O)[C@H](O[C@H]2c3cc(C)c(C(=O)N[C@H](C)C(=O)O)c(O)c3-c3c(cc4c(c3O)C(=O)c3cc(OC)cc(O)c3C4=O)[C@@H]2O)O[C@@H]1C ; strain or isolate: IAM 4514 ; value: 0.4 µg/mL
Fc1ccc(C(Cn2ccnc2)NCc2cccc3ccccc23)cc1 ; value: >50 µg/mL
O=C(O)c1ccc(-c2nnn(CC#CI)n2)cc1 ; strain or isolate: CR-1 ; value: 100 µg/mL
CC[C@@H]([C@H](C)O)n1ncn(-c2ccc(N3CCN(c4ccc(OC[C@@H]5CO[C@@](Cn6cncn6)(c6ccc(F)cc6F)C5)cc4)CC3)cc2)c1=O ; strain or isolate: 486 (HIV+) ; value: 1 µg/mL
CC(C)=CCC/C(C)=C/CN=C(N)NC/C=C(\C)CCC=C(C)C ; strain or isolate: ATCC 90012 ; value: 250 µg/mL
C=C1CC[C@@H]2C[C@H]1C2(C)C.C[C@@H]1[C@H](O)[C@@H](C)/C=C/C=C/C=C/C=C/C=C/C=C/C=C/[C@H](O[C@@H]2O[C@H](C)[C@@H](O)[C@H](N)[C@@H]2O)C[C@@H]2O[C@](O)(C[C@@H](O)C[C@@H](O)[C@H](O)CC[C@@H](O)C[C@@H](O)CC(=O)O[C@H]1C)C[C@H](O)[C@H]2C(=O)O ; strain or isolate: T1-444 serotype A ; read by: broth dilution ; value: 78.12 µg/mL
C[C@H]1[C@H](O)[C@@H](C)/C=C/C=C/C=C/C=C/C=C/C=C/C=C/[C@H](O[C@@H]2O[C@H](C)[C@@H](O)[C@H](N)[C@@H]2O)C[C@@H]2O[C@](O)(C[C@@H](O)C[C@@H](O)CC[C@H](O)[C@@H](O)C[C@@H](O)CC(=O)O[C@H]1C)C[C@H](O)[C@H]2C(=O)O ; strain or isolate: 32609 ; read by: broth dilution ; value: 4 µg/mL
CNC1C(C)OC(O[C@H]2c3cc(C)c(C(=O)N[C@H](C)C(=O)N[C@@H](C)C(=O)O)c(O)c3-c3c(cc4c(c3O)C(=O)c3cc(OC)cc(O)c3C4=O)[C@@H]2O)C(O)C1OC1OCC(O)C(O)C1O ; strain or isolate: IAM 4514 ; value: >100 µg/mL
COc1ccc2c(c1)C(=O)/C(=C/c1ccc(OC)c(OC)c1)CO2 ; strain or isolate: 25 ; value: 1.5 µg/mL
CCCSc1nc(Cl)c(C#N)c(-c2ccco2)n1 ; value: >100 µg/mL
CCC(=O)N1CCC(n2cc(CN3CCc4sccc4C3)nn2)CC1 ; strain or isolate: NCIM576 ; read by: agar ; value: >200 µg/mL
Fc1ccc(C(Cn2ccnc2)NCc2ccc(-c3ccccc3)cc2)cc1 ; value: 0.7 µg/mL
CCSc1nc(Cl)c(C#N)c(-c2ccco2)n1 ; value: 25 µg/mL
C(=C\c1ccccc1)/CNC(Cn1ccnc1)c1ccccc1 ; value: >50 µg/mL
CCCCCCCCCCCC(=O)NC(CCCN)C(=O)NC(CCCN)C(=O)NC(CCCN)C(=O)NC(CCCN)C(=O)NC(CCCN)C(N)=O ; strain or isolate: ATCC 2344 ; read by: broth dilution ; value: 25 µg/mL
C[C@@H](n1cnc2cc(Cl)ccc2c1=O)[C@](O)(Cn1cncn1)c1ccc(F)cc1F ; strain or isolate: 3 strains ; value: 0.01 µg/mL
CC1(C)O[C@H]2O[C@H](C3=NOC(CO)C3)[C@H](OCc3ccccc3)[C@H]2O1 ; value: 25 µg/mL
CC1CC(=O)N(c2ccc(F)cc2F)C1=O ; strain or isolate: ATCC 32264 ; read by: broth dilution / turbidity ; value: 125 µg/mL
Clc1ccc(C(Cn2ccnc2)OCc2cccc3ccccc23)cc1 ; value: >128 µg/mL
CO[C@@H]1[C@H]2OC(C)(C)O[C@H]2O[C@@H]1C1=NOC(OC(C)=O)C1 ; value: 25 µg/mL
CC1CC(=O)N(c2ccc(Cl)cc2)C1=O ; strain or isolate: ATCC 32264 ; read by: broth dilution / turbidity ; value: 125 µg/mL

5 of the rows above, restated:

structure | strain or isolate | read by | conditions | value
CC1CC(=O)N(c2ccc(Br)cc2)C1=O | ATCC 32264 | broth dilution / turbidity |  | 125 µg/mL
Clc1ccc(C(Cn2ccnc2)NCc2cccc3ccccc23)c(Cl)c1 |  |  |  | >50 µg/mL
COC(=O)[C@@H]1N=C1/C=C\CCCCCCCCCCCCC(C)(C)C | var. grubii |  |  | 8–10 µg/mL
CCCCCCCCCCCCCCCC1=N[C@H]1C(=O)OC | var. gatti |  |  | 2 µg/mL
CCC(=O)N1CCC(n2cc(CN3CCc4sccc4C3)nn2)CC1 | NCIM576 | agar |  | >200 µg/mL